What was measured:
[1] = test system: Mycobacterium tuberculosis strain H37Rv
Zygomycota fungi = conditions: for Therapeutic index Fold (fold improvement compared to that of D4), Zygomycota fungi: relative to D4
Gram-positive bacteria = conditions: for Therapeutic index Fold (fold improvement compared to that of D4), Gram-positive bacteria: relative to D4
Gram-negative bacteria = assay: Antibacterial activity (MIC), microtiter dilution; format: cell-based
Description: MICs were determined by a standard microtiter dilution method in Mueller Hinton Broth (MHB). Serial dilutions of the 10× compound were added to the microtiter plates in a volume of 10 μL followed by 90 μL of bacteria for an inoculum of 5×10^5 colony-forming units (CFU)/mL. The plates were incubated at 37° C. for 24 h, and the MICs were determined as the lowest peptide concentration that inhibited growth. […]
Alternatively; minimal inhibitory concentrations were determined using a standard microtiter dilution method in a Mueller-Hinton (MH) medium. Briefly, cells were grown overnight at 37° C. in MH broth and diluted in the same medium. Serial dilutions of the peptides were added to the microtiter plates in a volume of 100 μl followed by 10 μl of bacteria for an initial cell concentration of 1×10^5 CFU/ml. Plates were incubated at 37° C. for 24 hours and MICs determined as the lowest peptide concentration that inhibited growth.

[2] = further experiments, relative to D4
[3] = ratio of HC50 (μg/mL) over geometric mean MIC (μg/mL)
[4] = ratio of HC50 (μg/mL) over geometric mean MIC50 (μg/mL)

Compound	increase in therapeutic index relative to D4 (Ascomycota fungi; Ascomycota fungi) [fold]	Therapeutic index MHC50/MIC ([1]; MHC50 (human red blood cells) over MIC (M. tuberculosis))	Therapeutic index to H37Rv strain HC50/MIC ([1]; further experiments)	Therapeutic index to H37Rv strain Fold (compared to D4) [1, 2] [fold]	Therapeutic index Fold (fold improvement compared to that of D4) ([1]; relative to D4) [fold]	Therapeutic index Fold (fold improvement compared to that of D4), Zygomycota fungi (Zygomycota fungi) [fold]	increase in therapeutic index relative to peptide D4 (Gram-positive bacteria; gram-positive bacteria) [fold]	Therapeutic index Fold (fold improvement compared to that of D4), Gram-positive bacteria (Gram-positive bacteria) [fold]	increase in therapeutic index relative to peptide D4 (Gram-negative bacteria; gram-negative bacteria) [fold]	Therapeutic index HC50/MIC, Gram-negative bacteria (Gram-negative bacteria; [3])	Therapeutic index Fold (fold improvement compared to that of D4), Gram-negative bacteria (Gram-negative bacteria; relative to D4) [fold]	therapeutic index (MHC/MIC) (Gram-positive bacteria; gram-positive bacteria)	therapeutic index (MHC/MIC) (Gram-negative bacteria; gram-negative bacteria)	Therapeutic index HC50/MIC50, Ascomycota fungi (Ascomycota fungi; [4])	Therapeutic index HC50/MIC50, Zygomycota fungi (Zygomycota fungi; [4])	Therapeutic index HC50/MIC, Gram-positive bacteria (Gram-positive bacteria; [3])
CC[C@@H](C)[C@@H](NC(=O)[C@@H](CC(C)C)NC(=O)[C@@H](CCCCN)NC(=O)[C@@H](CC(C)C)NC(=O)[C@@H](CC(C)C)NC(=O)[C@H](NC(=O)[C@@H](Cc1c[nH]cn1)NC(=O)[C@@H](CC(C)C)NC(=O)[C@@H](CCCCN)NC(=O)[C@H](NC(=O)[C@@H](CCCCN)NC(=O)[C@@H](CCCCN)NC(=O)[C@@H](CC(C)C)NC(=O)[C@@H](CO)NC(=O)[C@@H](CCCCN)NC(=O)[C@@H](Cc1ccccc1)NC(=O)[C@H](NC(=O)[C@@H](CCCCN)NC(=O)[C@@H](CC(C)C)NC(=O)[C@@H](Cc1ccccc1)NC(=O)[C@@H](CO)NC(=O)[C@@H](CCCCN)NC(=O)[C@@H](Cc1c[nH]c2ccccc12)NC(=O)[C@@H](CCCCN)NC(C)=O)[C@H](C)O)[C@H](C)O)[C@H](C)O)C(=O)N[C@H](CO)C(=O)N[C@H](CO)C(N)=O [D5]	11	1.3	1.3	66	61	201	22	22	28	4.4	28	–	–	–	–	–
Ac-KWKSFLKTFKSAVKTVLHTALKAISS-NH2 [V681, reference compound]	–	–	–	–	–	–	–	–	–	–	–	2.5	1.8	–	–	–
CC[C@@H](C)[C@@H](NC(=O)[C@@H](C)NC(=O)[C@@H](CCCCN)NC(=O)[C@@H](CC(C)C)NC(=O)[C@@H](C)NC(=O)[C@H](NC(=O)[C@@H](Cc1c[nH]cn1)NC(=O)[C@@H](CC(C)C)NC(=O)[C@H](NC(=O)[C@H](NC(=O)[C@@H](CCCCN)NC(=O)[C@@H](CCCCN)NC(=O)[C@@H](C)NC(=O)[C@@H](CO)NC(=O)[C@@H](CCCCN)NC(=O)[C@@H](Cc1ccccc1)NC(=O)[C@H](NC(=O)[C@@H](CCCCN)NC(=O)[C@@H](CC(C)C)NC(=O)[C@@H](Cc1ccccc1)NC(=O)[C@@H](CO)NC(=O)[C@@H](CCCCN)NC(=O)[C@@H](Cc1c[nH]c2ccccc12)NC(=O)[C@@H](CCCCN)NC(C)=O)[C@H](C)O)[C@H](C)O)C(C)C)[C@H](C)O)C(=O)N[C@H](CO)C(=O)N[C@H](CO)C(N)=O [D1]	–	–	–	293	–	1569	–	255	–	–	–	–	–	34.9	109.9	55.7

Reference: US20100099614A1, “Antimicrobial Peptides and Methods of Use” (priority 2008, published 2010)
